The source of these data is article PMC5484114 (Marine Drugs, 2017).

By UniProt entry, the sequences of proteins in these tests, tags left out. Where a name states a change or a piece, a line headed by the entry shows the natural chain unless it says otherwise. Residues count along the entry.
UniProt P20782, 21-493 limits assumed: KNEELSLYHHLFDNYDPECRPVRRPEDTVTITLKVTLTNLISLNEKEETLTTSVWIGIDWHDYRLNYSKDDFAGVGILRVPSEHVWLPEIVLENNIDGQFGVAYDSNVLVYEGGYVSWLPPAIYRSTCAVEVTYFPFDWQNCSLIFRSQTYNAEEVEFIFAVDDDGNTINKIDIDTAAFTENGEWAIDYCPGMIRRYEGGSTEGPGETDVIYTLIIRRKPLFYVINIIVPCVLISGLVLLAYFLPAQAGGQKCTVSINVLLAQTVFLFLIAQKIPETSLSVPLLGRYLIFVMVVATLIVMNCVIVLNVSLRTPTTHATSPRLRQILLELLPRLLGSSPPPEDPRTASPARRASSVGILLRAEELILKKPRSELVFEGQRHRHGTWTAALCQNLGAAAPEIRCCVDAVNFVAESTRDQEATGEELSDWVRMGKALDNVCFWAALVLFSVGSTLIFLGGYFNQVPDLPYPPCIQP
UniProt P25108, 21-457 limits assumed: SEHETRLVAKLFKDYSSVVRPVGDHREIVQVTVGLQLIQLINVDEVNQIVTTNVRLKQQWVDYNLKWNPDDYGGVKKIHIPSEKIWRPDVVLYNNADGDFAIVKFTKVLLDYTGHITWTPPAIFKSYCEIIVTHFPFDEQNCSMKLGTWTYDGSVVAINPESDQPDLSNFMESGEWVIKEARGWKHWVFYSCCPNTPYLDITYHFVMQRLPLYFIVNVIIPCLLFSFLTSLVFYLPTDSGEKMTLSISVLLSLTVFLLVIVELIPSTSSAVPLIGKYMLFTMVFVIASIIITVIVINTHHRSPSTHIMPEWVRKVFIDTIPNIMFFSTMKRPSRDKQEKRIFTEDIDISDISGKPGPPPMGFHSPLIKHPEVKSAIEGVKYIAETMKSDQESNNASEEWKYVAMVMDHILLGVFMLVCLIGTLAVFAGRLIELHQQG
UniProt P25109, 24-501 limits assumed: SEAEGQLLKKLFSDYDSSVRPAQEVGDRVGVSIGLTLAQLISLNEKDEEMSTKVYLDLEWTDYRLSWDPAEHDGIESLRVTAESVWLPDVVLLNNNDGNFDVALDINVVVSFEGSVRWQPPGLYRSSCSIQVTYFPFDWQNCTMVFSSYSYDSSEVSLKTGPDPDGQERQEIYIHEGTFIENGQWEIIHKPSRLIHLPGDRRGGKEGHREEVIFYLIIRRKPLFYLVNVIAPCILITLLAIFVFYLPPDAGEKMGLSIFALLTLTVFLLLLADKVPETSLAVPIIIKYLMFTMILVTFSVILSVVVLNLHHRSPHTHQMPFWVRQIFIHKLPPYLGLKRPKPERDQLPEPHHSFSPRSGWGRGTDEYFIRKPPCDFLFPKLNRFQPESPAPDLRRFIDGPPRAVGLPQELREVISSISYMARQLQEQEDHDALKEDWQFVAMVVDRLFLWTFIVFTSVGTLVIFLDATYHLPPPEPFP
UniProt P25110, 22-517 limits assumed: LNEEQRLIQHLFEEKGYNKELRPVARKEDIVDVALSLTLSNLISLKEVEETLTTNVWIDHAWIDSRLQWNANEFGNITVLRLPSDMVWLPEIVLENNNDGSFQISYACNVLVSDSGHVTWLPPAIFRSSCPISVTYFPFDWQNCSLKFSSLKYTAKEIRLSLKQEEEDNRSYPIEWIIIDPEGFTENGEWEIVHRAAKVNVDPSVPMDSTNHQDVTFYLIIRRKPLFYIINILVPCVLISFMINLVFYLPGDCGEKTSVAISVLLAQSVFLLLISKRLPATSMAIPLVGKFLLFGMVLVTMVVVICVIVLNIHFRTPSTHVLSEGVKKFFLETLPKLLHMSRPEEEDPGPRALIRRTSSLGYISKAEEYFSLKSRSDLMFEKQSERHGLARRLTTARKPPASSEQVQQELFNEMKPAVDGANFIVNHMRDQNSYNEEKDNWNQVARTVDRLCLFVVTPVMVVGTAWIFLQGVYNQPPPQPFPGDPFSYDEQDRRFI

This experiment deals with rα1β1εδ nAChR (UniProt P20782+P25108+P25109+P25110). The experiment can be described thus: Inhibition of ACh-evoked currents, two-electrode voltage clamp in Xenopus oocytes, rα1β1εδ. Conditions: 1 μM ACh.

pIC50: −log10 of the molar value.

For `CC(C)C[C@H](NC(=O)[C@H](CO)NC(=O)[C@@H]1CSSC[C@H](NC(=O)[C@@H]2CCCN2C(=O)[C@H](CCCNC(=N)N)NC(=O)[C@H](Cc2c[nH]cn2)NC(=O)[C@@H](NC(=O)[C@@H](N)CC(=O)O)C(C)C)C(=O)N[C@@H](CCC(N)=O)C(=O)N[C@@H](CO)C(=O)N[C@@H](C(C)C)C(=O)N[C@@H](CCCNC(=N)N)C(=O)N2CCC[C@H]2C(=O)NCC(=O)N[C@@H](CCCNC(=N)N)C(=O)N[C@@H](C(C)C)C(=O)N[C@@H](Cc2c[nH]c3ccccc23)C(=O)NCC(=O)N[C@@H](CCCCN)C(=O)N[C@H](C(=O)N[C@@H](CO)C(=O)N[C@@H](CC(C)C)C(=O)O)CSSC[C@H](NC(=O)[C@@H]2CCCN2C(=O)[C@H](CCCNC(=N)N)NC(=O)[C@H](Cc2c[nH]cn2)NC(=O)[C@@H](NC(=O)[C@@H](N)CC(=O)O)C(C)C)C(=O)N[C@@H](CCC(N)=O)C(=O)N[C@@H](CO)C(=O)N[C@@H](C(C)C)C(=O)N[C@@H](CCCNC(=N)N)C(=O)N2CCC[C@H]2C(=O)NCC(=O)N[C@@H](CCCNC(=N)N)C(=O)N[C@@H](C(C)C)C(=O)N[C@@H](Cc2c[nH]c3ccccc23)C(=O)NCC(=O)N[C@@H](CCCCN)C(=O)N1)C(=O)O` [NTD], the “Hill Slope (nH) at rα1β1εδ” value (concentration–response curve) is listed as −1.1.

A word on the pIC50: it is the IC50 on a negative log10 scale, so that one unit is a factor of ten. Consider `CC(C)[C@@H]1NC(=O)[C@H](CCCNC(=N)N)NC(=O)CNC(=O)[C@@H]2CCCN2C(=O)[C@H](CCCNC(=N)N)NC(=O)[C@H](C(C)C)NC(=O)[C@H](CO)NC(=O)[C@H](CCC(N)=O)NC(=O)[C@@H](N)CSSC[C@@H](C(=O)O)NC(=O)[C@H](CCCCN)NC(=O)CNC(=O)[C@H](Cc2c[nH]c3ccccc23)NC(=O)[C@H](C(C)C)NC(=O)[C@H](CCCNC(=N)N)NC(=O)CNC(=O)[C@@H]2CCCN2C(=O)[C@H](CCCNC(=N)N)NC(=O)[C@H](C(C)C)NC(=O)[C@H](CO)NC(=O)[C@H](CCC(N)=O)NC(=O)[C@@H]2CCCN2C(=O)CNC(=O)[C@@H]2CCCN2C(=O)[C@H](CCCCN)NC(=O)CNC(=O)[C@H](Cc2c[nH]c3ccccc23)NC1=O` [cNTD], for which the pIC50 (read-out: IC50 (95% CI) at rα1β1εδ, X. laevis oocytes, holding potential −80 mV, 5 min peptide incubation, ND96 pH 7.4 + 0.1% BSA, 95% CI NTD 4.71–7.34 (n = 5–8), cNTD 3.35–4.56 (n = 5–7)) is 5.41.
